We go through one substance from paper PMC8437407.

Test [1] addresses PspC (group 3 PRD containing the NPB) on live Spn strain TIGR4 (Streptococcus pneumoniae strain TIGR4).
Test [2] concerns the target PspA on live wild-type Spn strain WU2 (Streptococcus pneumoniae strain WU2).

Some results are limits rather than exact numbers.

“purified rabbit muscle LDH, consisting primarily of LDH-A (from UniProt P13491 1-332) (enzyme)” registered a bacterial titers in the lungs of mice 24 h after intratracheal challenge with TIGR4 given in PBS with rabbit LDH-A against without in test [1] of more than 10 fold. Further, in test [2], the bacterial titers in the lungs of mice 24 h after intratracheal challenge with WU2 given in PBS with rabbit LDH-A against without was more than 10 fold.
